This passage reports wavelength shift results from publication PMC7265403, “The low density receptor-related protein 1 plays a significant role in ricin-mediated intoxication of lung cells” (2020).

The target in the assay is LRP1 cluster II, biotinylated, not stated, Q07954 852-1182. The experiment in a line: BLI. On the technique in general: Biolayer interferometry detects binding as a change in optical thickness at a sensor tip.

In the case of “Ricin B subunit (RTB), purified biotin (biotinylated)”, the wavelength shift stood at 0.5 nm.
